## Mutational interference map of HIV-1 RNA dimerization

Values reported by Ye et al. 2022 (doi:10.1038/s41594-022-00746-2).

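Randomly mutated transcripts starting with one, two or three G (1G, 2G, 3G), capped or uncapped, were folded for 30 min at 37 °C. High salt was 300 mM KCl and 5 mM MgCl2, low salt 40 mM KCl and 0.1 mM MgCl2; monomer and dimer were parted on a native gel. Kdimer compares mutation frequencies in monomer and dimer, corrected for sequencing errors.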

RNA: 5' end of the HIV-1 NL4-3 genome, made in vitro. Positions 1-437 read:
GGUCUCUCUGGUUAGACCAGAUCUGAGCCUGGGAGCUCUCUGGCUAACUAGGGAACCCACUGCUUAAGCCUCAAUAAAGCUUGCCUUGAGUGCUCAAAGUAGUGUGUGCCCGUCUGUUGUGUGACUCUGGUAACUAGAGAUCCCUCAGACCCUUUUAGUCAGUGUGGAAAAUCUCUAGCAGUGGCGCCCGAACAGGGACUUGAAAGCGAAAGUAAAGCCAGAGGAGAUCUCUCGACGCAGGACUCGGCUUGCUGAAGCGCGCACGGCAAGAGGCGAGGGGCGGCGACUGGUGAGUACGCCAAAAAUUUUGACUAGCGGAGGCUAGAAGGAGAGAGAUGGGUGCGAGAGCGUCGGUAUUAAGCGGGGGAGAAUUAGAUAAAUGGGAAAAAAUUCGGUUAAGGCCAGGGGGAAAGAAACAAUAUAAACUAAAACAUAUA

Scale: median log2 Kdimer over the changes at a position; positive = changes inhibit dimerization, negative = changes enhance it. One numbering serves 1G, 2G and 3G. A position is written with its base.

C245 gave 1G capped low-salt 1.47; 2G capped high-salt 1.24; 2G uncapped high-salt 1.26.
G246 gave 1G capped low-salt 1.69; 2G capped high-salt 1.08; 2G uncapped high-salt 1.40.
G247 gave 1G capped low-salt -1.15; 2G capped high-salt -0.65; 2G uncapped high-salt -0.52.
C248 gave 1G capped low-salt 0.57; 2G capped high-salt 0.55; 2G uncapped high-salt 0.75.
U249 gave 1G capped low-salt 1.61; 2G capped high-salt 1.18; 2G uncapped high-salt 1.55.
U250 gave 1G capped low-salt 2.53; 2G capped high-salt 2.62; 2G uncapped high-salt 2.77.
G251 gave 1G capped low-salt 3.86; 2G capped high-salt 3.82; 2G uncapped high-salt 5.73.
C252 gave 1G capped low-salt 3.09; 2G capped high-salt 3.30; 2G uncapped high-salt 4.55.
U253 gave 1G capped low-salt 1.96; 2G capped high-salt 1.93; 2G uncapped high-salt 2.34.
G254 gave 1G capped low-salt 1.86; 2G capped high-salt 2.43; 2G uncapped high-salt 2.14.
A255 gave 1G capped low-salt -0.53; 2G capped high-salt -0.06; 2G uncapped high-salt -0.13.
A256 gave 1G capped low-salt 1.74; 2G capped high-salt 1.04; 2G uncapped high-salt 0.93.
G257 gave 1G capped low-salt 0.68; 2G capped high-salt 3.47; 2G uncapped high-salt 2.95.
C258 gave 1G capped low-salt 3.66; 2G capped high-salt 4.80; 2G uncapped high-salt 4.62.
G259 gave 1G capped low-salt 3.05; 2G capped high-salt 4.71; 2G uncapped high-salt 7.18.
C260 gave 1G capped low-salt 3.11; 2G capped high-salt 4.44; 2G uncapped high-salt 5.57.
G261 gave 1G capped low-salt 3.01; 2G capped high-salt 4.52; 2G uncapped high-salt 7.18.
C262 gave 1G capped low-salt 2.82; 2G capped high-salt 3.10; 2G uncapped high-salt 4.30.
A263 gave 1G capped low-salt 1.14; 2G capped high-salt 0.11; 2G uncapped high-salt 0.30.
C264 gave 1G capped low-salt 2.82; 2G capped high-salt 1.98; 2G uncapped high-salt 2.41.
G265 gave 1G capped low-salt 2.75; 2G capped high-salt 2.64; 2G uncapped high-salt 3.21.
G266 gave 1G capped low-salt 2.82; 2G capped high-salt 4.61; 2G uncapped high-salt 6.85.
C267 gave 1G capped low-salt 3.21; 2G capped high-salt 4.01; 2G uncapped high-salt 4.94.
A268 gave 1G capped low-salt 2.56; 2G capped high-salt 2.95; 2G uncapped high-salt 2.87.
A269 gave 1G capped low-salt 1.59; 2G capped high-salt 1.57; 2G uncapped high-salt 1.48.
G270 gave 1G capped low-salt 0.68; 2G capped high-salt 1.05; 2G uncapped high-salt 0.86.
A271 gave 1G capped low-salt -0.40; 2G capped high-salt 0.15; 2G uncapped high-salt -0.05.
G272 gave 1G capped low-salt -0.42; 2G capped high-salt -0.33; 2G uncapped high-salt -0.22.
G273 gave 1G capped low-salt -0.57; 2G capped high-salt -0.43; 2G uncapped high-salt -0.30.
C274 gave 1G capped low-salt 0.89; 2G capped high-salt 0.10; 2G uncapped high-salt 0.31.
G275 gave 1G capped low-salt 1.90; 2G capped high-salt 2.74; 2G uncapped high-salt 2.58.
A276 gave 1G capped low-salt 2.81; 2G capped high-salt 3.24; 2G uncapped high-salt 3.49.
G277 gave 1G capped low-salt 2.30; 2G capped high-salt 2.50; 2G uncapped high-salt 2.53.
G278 gave 1G capped low-salt 0.43; 2G capped high-salt 0.37; 2G uncapped high-salt 0.34.

Extract of 3 entries:

| position | 1G capped low-salt | 2G capped high-salt | 2G uncapped high-salt |
|---|---|---|---|
| C245 | 1.47 | 1.24 | 1.26 |
| U253 | 1.96 | 1.93 | 2.34 |
| G261 | 3.01 | 4.52 | 7.18 |